Measurements taken from ChEMBL document CHEMBL2157983 (Bioorg Med Chem Lett, 2011).

Columns and labels:
[1] = system: Leishmania major; test: Trypanocidal activity against Leishmania major promastigote forms infected in sandfly gut assessed as inhibition of parasite growth
[2] = system: Trypanosoma brucei; test: Trypanocidal activity against of Trypanosoma brucei bloodstream trypomastigote forms assessed as inhibition of parasite growth

`O=C(OCc1ccc([N+](=O)[O-])cc1)N(CCCl)CCCl` showed an IC50 [1] of 16.2 µM and an IC50 [2] of over 10 µM.
